Experimental data from patent US20110262477A1 (priority 2008, published 2011).

B1: Eap: recombinant His-tagged staphylococcal envelope associated protein Eap (SEQ ID NO:4) purified from E. coli, vaccine antigen (protein, listed as Staphylococcus aureus)
chain: MKFKSLITTTLALGVLASTGANFNNNEASAAAKPLDKSSSSLHHGYSKVHVPYAITVNGTSQNILSSLTFNKNQNISYKDLEDRVKSVLKSDRGISDIDLRLSKQAKYTVYFKNGTKKVIDLKAGIYTADLINTSEIKAININVDTKKQVEDKKKDKANYQVPYTITVNGTSQNILSNLTFNKNQNISYKDLEDKVKSVLESNRGITDVDLRLSKQAKYTVNFKNGTKKVIDLKSGIYTANLINSSDIKSININVDTKKHIENKAKRNYQVPYSINLNGTSTNILSNLSFSNKPWTNYKNLTSQIKSVLKHDRGISEQDLKYAKKAYYTVYFKNGGKRILQLNSKNYTANLVHAKDVKRIEITVKTGTKAKADRYVPYTIAVNGTSTPILSDLKFTGDPRVGYKDISKKVKSVLKHDRGIGERELKYAKKATYTVHFKNGTKKVININSNISQLNLLYVQDIKKIDIDVKTGTKAKADSYVPYTIAVNGTSTPILSKLKISNKQLISYKYLNDKVKSVLKSERGISDLDLKFAKQAKYTVYFKNGKKQVVNLKSDIFTPNLFSAKDIKKIDIDVKQYTKSKKNK
modifications: His-tag
B2: Emp: recombinant His-tagged staphylococcal envelope associated protein Emp (SEQ ID NO:2) purified from E. coli, vaccine antigen (protein, listed as Staphylococcus aureus)
chain: MKKKLLVLTMSTLFATQIMNSNHAKASVTESVDKKFVVPESGINKIIPAYDEFKNSPKVNVSNLTDNKNFVASEDKLNKIADSSAASKIVDKNFVVPESKLGNIVPEYKEINNRVNVATNNPASQQVDKHFVAKGPEVNRFITQNKVNHHFITTQTHYKKVITSYKSTHVHKHVNHAKDSINKHFIVKPSESPRYTHPSQSLIIKHHFAVPGYHAHKFVTPGHASIKINHFCVVPQINSFKVIPPYGHNSHRMHVPSFQNNTTATHQNAKVNKAYDYKYFYSYKVVKGVKKYFSFSQSNGYKIGKPSLNIKNVNYQYAVPSYSPTHYVPEFKGSLPAPRV
modifications: His-tag

Tested on: S. aureus Newman
Experiment: Eap, Emp vaccination, murine renal abscess model (FIG. 5)
Settings: challenge 3×10^7 CFU S. aureus Newman, FIG. 5C; for protection against staphylococcal infection: P<0.05; for reduction in staphylococcal load: immunized with protein emulsified in CFA

| Molecule | protection against staphylococcal infection | reduction in staphylococcal load |
| --- | --- | --- |
| B1 | significant protection | two |
| B2 | significant protection | 2.5 log |
